Results of unrelated studies side by side (data: NIAID ChemDB).

Common to all: whole-cell or culture tests; species: HIV-1

Two numbers with a dash give a range or band. Lines come from different laboratories, so protocols vary. ECn is the concentration giving n% inhibition of infection, replication or growth. An empty or dashed field is not shown.

smiles | measure | mutations | cell line | strain | read by | value
O=C1Nc2ccc(Cl)cc2[C@@](C#CC2CC2)(C(F)(F)F)[C@H]1OCc1ccncc1 | EC50 | RT-K103N |  |  |  | <0.05 µM
NCCCCCCCCCCCCNC(=O)Cc1cn([C@H]2C=C[C@@H](CO)O2)c(=O)[nH]c1=O | EC50 |  | CEM + CEM-SS | LAI | cytopathic effect / MTT | 2.3 µM
CC(C)=CCOc1cc(NC(=S)c2ccoc2C)ccc1Cl | EC50 | RT-Y181C | CEM + CEM-SS | UC82-R (RT-Y181C) | cytopathic effect / XTT | 1.1 µM
Cc1cc(=O)oc2c3c(ccc12)S[C@H](C)[C@@H](OC(=O)[C@@]12CC[C@@](C)(C(=O)O1)C2(C)C)[C@H]3OC(=O)[C@@]12CC[C@@](C)(C(=O)O1)C2(C)C | EC50 |  | H9 | IIIB | p24 / antigen | >100 µg/mL
CCCCCCCCCCCCCC[C@@]1(O)C[N+](C)(C)C[C@@H](CC(=O)[O-])O1 | EC50 |  |  | RF | virus yield | ~32 µg/mL
CCN1c2ncc(CCOc3ccc(Nc4ccc(C(=O)O)cc4)cc3C)cc2C(=O)N(C)c2cccnc21 | EC50 | RT-K103N Y181C | C8166 |  | p24 | 0.01–0.05 µM
Nc1ncnc2c1ncn2C1CC(CO)C1 | EC50 |  | ATH8 | IIIB | cytopathic effect | >100 µM
NCCCCCCCCNC(=O)Cc1cn([C@@H]2C=C[C@H](CO)O2)c(=O)[nH]c1=O | EC50 |  | CEM + CEM-SS | IIIB | cytopathic effect / MTT | >100 µM
CCN1c2ncc(CCOc3ccc(-c4cnc[nH]4)cc3C)cc2C(=O)N(C)c2cccnc21 | EC50 | RT-K103N Y181C | C8166 |  | p24 | <0.01 µM
O=C1Nc2ccc(Cl)cc2[C@@](C#CC2CC2)(C(F)(F)F)[C@H]1OCc1cccc(F)c1 | EC50 |  | MT-2 | RF |  | <0.201 µM
Nc1nc2c(ncn2[C@H]2CC[C@@H](CO)O2)c(=O)[nH]1 | EC90 |  | PBL(PHA STIM.) + PBL | LAI | p24 | <2.5 µM
O=Cc1coc2ccc(Br)cc2c1=O | EC50 |  | HTLV-I-bearing MT-4 | IIIB | MTT | >40 µg/mL
O=C1CC(C#CC2CC2)(C(F)(F)F)c2cc(Cl)ccc2N1 | EC50 | RT-K103N |  |  |  | <0.177 µM
Nc1ncnc2c1ncn2[C@@H]1C[C@H](CO)[C@@H]1CO | EC50 |  | MT-2 | IIIB | cytopathic effect | >200 µM
Nc1ccc(CO[C@H]2C(=O)Nc3ccc(Cl)cc3[C@@]2(C#CC2CC2)C(F)(F)F)cc1 | EC50 | RT-L100I |  |  |  | <0.049 µM
CC(CO)n1cnc2c(Cl)nc(N)nc21 | EC50 |  | MT-2 | LAV-1 | RT activity | >100 µM
COc1cc([C@H](O)[C@H](CO)Oc2c(OC)cc(C(=O)CCO)cc2OC)ccc1O | EC50 |  |  |  | cytopathic effect | 2.64 µg/mL
CC1(C)CC=C(c2cn(-c3nccc(C(=O)NC4CCC(N5CC6CCC(C5)O6)CC4)n3)c3ccc(F)c([C@H](OC(C)(C)C)C(=O)O)c23)CC1 | EC50 | N155H | MT-4 | NL4-3 | luminescence | 0.0047 µM
CCCCCCCCCC[C@@]1(O)C[N+](C)(C)C[C@@H](CC(=O)[O-])O1 | EC50 |  |  | RF | virus yield | ~320 µg/mL
CC(CO)n1cnc2c(Cl)ncnc21 | EC50 |  | MT-2 | LAV-1 | RT activity | >100 µM
CCN1c2ncc(CCOc3ccc(S(=O)(=O)c4cccc(CC(=O)O)c4)cc3C)cc2C(=O)N(C)c2cccnc21 | EC50 | RT-K103N Y181C | C8166 |  | p24 | >0.05 µM
CC(C)=CCOc1cc(NC(=S)c2ccsc2C)ccc1Cl | EC50 | RT-M184V | CEM + CEM-SS | NL4-3 (RT M184V) | cytopathic effect / XTT | 0.01 µM
C[C@]1(CO)CO[C@@H](n2cnc3c(=O)[nH]c(F)nc32)C1 | EC50 |  | PBMC | LAV | RT activity | 0.073 µM
C=C1CN(S(=O)(=O)c2ccc(C)cc2)CCCN(Cc2ccccc2)CCCN(S(=O)(=O)c2ccc(C)cc2)C1 | EC50 |  | MT-4 | IIIB |  | 2 µM
CC(C)CCC[C@@H](C)[C@H]1CC[C@H]2[C@@H]3CC[C@H]4C[C@@H](CCC=C(c5cc(Cl)c(O)c(C(=O)O)c5)c5cc(Cl)c(O)c(C(=O)O)c5)CC[C@]4(C)[C@H]3CC[C@]12C | EC50 |  | MT-4 | IIIB | cytopathic effect / MTT | 1.8 µg/mL
Cc1cc2occ(C=O)c(=O)c2cc1Cl | EC50 |  | HTLV-I-bearing MT-4 | IIIB | MTT | >40 µg/mL
Nc1nc2c(ncn2[C@@H]2O[C@H](CO)C[C@@H]2F)c(=O)[nH]1 | EC50 |  | ATH-8 + ATH8 | LAI | cytopathic effect / XTT | ~50 µM
O=Cc1coc2ccc([N+](=O)[O-])cc2c1=O | EC50 |  | HTLV-I-bearing MT-4 | IIIB | MTT | >40 µg/mL
NCCCCCCNC(=O)Cc1cn([C@H]2C=C[C@@H](CO)O2)c(=O)[nH]c1=O | EC50 |  | CEM + CEM-SS | IIIB | cytopathic effect / MTT | >100 µM
Cc1ccnc2c1NC(=O)c1cccnc1N2C1CC1 | EC50 |  | TZM-bl | SF33 | p24 / ELISA | 0.634 µM
COc1ccc(N(C)C(=O)[C@H](Cc2ccccc2)NC(=O)c2cccc(-c3cn(-c4cnc5ccccc5c4)nn3)c2)cc1 | EC50 |  | TZM-bl | NL4-3 | MTT | >34.33 µM
COc1ncnc2c1ncn2C(C)CO | EC50 |  | MT-2 | LAV-1 | RT activity | >100 µM
Cc1cn([C@H]2O[C@H](CO)[C@]3(N=[N+]=[N-])CO[C@@H]23)c(=O)[nH]c1=O | EC50 |  | MT-4 | IIIB | cytopathic effect / MTT | >300 µM
Nc1ncnc2c1ncn2C1CC(CO)(CO)C1 | EC50 |  | MT-2 | IIIB | cytopathic effect | >200 µM
C=CC(C)(/C=C\c1ccc(O)cc1)c1ccc(O)cc1.NC(=O)NO | EC50 |  | PBMC | 6363 | p24 | 0.0005 µM
COc1ccc(C[C@H](C[C@H](O)[C@H](Cc2ccccc2)NC(=O)OC(C)(C)C)C(=O)N[C@H](C(=O)N[C@@H](Cc2ccccc2)C(=O)N2CCOCC2)C(C)C)cc1 | EC50 |  | MT-2 | MN | RT activity | 0.0045 µM
COc1ccccc1N1CCN(c2c(F)cc3c(=O)c(C(=O)O)cn(C)c3c2CN(C)C)CC1 | EC50 |  | MOLT-4 |  | cytopathic effect / MTT | 0.18 µM
CC(C)=CCN1CC(C)Cn2c(=S)[nH]c3cccc1c32 | EC50 |  | CEM(SS) + CEM-SS | RF | cytopathic effect / XTT | 1.4 µM
NCCCCCCCCCCNC(=O)Cc1cn([C@@H]2C=C[C@H](CO)O2)c(=O)[nH]c1=O | EC50 |  | CEM + CEM-SS | LAI | cytopathic effect / MTT | 33 µM
COc1ccc(N(C)C(=O)C(Cc2cc(F)cc(F)c2)NC(=O)c2cn(C3CC(n4cc(C)c(=O)[nH]c4=O)OC3CO)nn2)cc1 | EC50 |  | TZM-bl | NL4-3 | MTT | >15.63 µM
CCN1c2ncc(CCOc3ccc(-c4nccn4C)cc3C)cc2C(=O)N(C)c2cccnc21 | EC50 | RT-K103N Y181C | C8166 |  | p24 | 0.01–0.05 µM
Nc1ccn([C@H]2CC[C@@H](CO)O2)c(=O)n1 | EC50 |  | HTLV-I-bearing MT-4 | IIIB | MTT | 2.41 µg/mL
O=C(O)c1cn(-c2ccc(Cn3cncn3)cc2)c2c(OC(F)F)c(N3CC=C(c4ccccc4)CC3)c(F)cc2c1=O | EC50 |  | MT-4 |  | cytopathic effect / MTT | 0.043 µM
Cc1c(C)c2ccc3c(c2oc1=S)[C@@H](OC(=O)C12CCC(C)(C(=O)O1)C2(C)C)[C@@H](OC(=O)C12CCC(C)(C(=O)O1)C2(C)C)C(C)(C)O3 | EC50 |  | H9 | IIIB |  | 0.0334 µM
O=C1Nc2ccc(Cl)cc2[C@@](C#CC2CC2)(C(F)(F)F)[C@H]1NCc1ccccc1 | EC50 |  | MT-2 | RF |  | <0.218 µM
CC(CO)n1cnc2c(N)ncnc21 | EC50 |  | MT-2 | LAV-1 | RT activity | >100 µM
O=S(=O)(O)c1cc(N=Nc2cc(S(=O)(=O)O)c3cccnc3c2O)ccc1/C=C/c1ccc(N=Nc2cc(S(=O)(=O)O)c3cccnc3c2O)cc1S(=O)(=O)O | EC50 |  | CEM |  | XTT | 1.34 µM
COc1cc2c(c3oc(=S)ccc13)[C@@H](OC(=O)C13CCC(C)(C(=O)O1)C3(C)C)[C@@H](OC(=O)C13CCC(C)(C(=O)O1)C3(C)C)C(C)(C)O2 | EC50 |  | H9 | IIIB |  | 1.28 µM
Nc1c(-c2nccc(=O)[nH]2)ncn1[C@@H]1O[C@H](CO)[C@@H](O)[C@H]1O | EC50 |  | MT-4 | LAV-1 | RT activity | >1500 µM
COc1cc2c(c3oc(=S)cc(C)c13)[C@@H](OC(=O)C13CCC(C)(C(=O)O1)C3(C)C)[C@@H](OC(=O)C13CCC(C)(C(=O)O1)C3(C)C)C(C)(C)O2 | EC50 |  | H9 | IIIB |  | 1.46 µM
O=C1Nc2ccc(Cl)cc2[C@@](C#CC2CC2)(C(F)(F)F)[C@H]1OCC1CC1 | EC50 |  | MT-2 | RF |  | >0.13 µM
Cc1cc2ccc3c(c2oc1=S)[C@@H](OC(=O)C12CCC(C)(C(=O)O1)C2(C)C)[C@@H](OC(=O)C12CCC(C)(C(=O)O1)C2(C)C)C(C)(C)O3 | EC50 |  | H9 | IIIB |  | 0.0119 µM
O=Cc1coc2c(Cl)cc(Cl)cc2c1=O | EC50 |  | HTLV-I-bearing MT-4 | IIIB | MTT | >200 µg/mL
O=C1Nc2ccc(Cl)cc2[C@@](C#CC2CC2)(C(F)(F)F)[C@H]1OCc1cccnc1 | EC50 |  | MT-2 | RF |  | <0.02 µM
CC(=O)OC1C(OC(C)=O)[C@H](n2cnc3c2ncn2c(CCl)cc(=O)nc32)O[C@@H]1OC(C)=O | EC50 |  | MT-4 | LAV-1 | RT activity | >200 µM
O=S(=O)([O-])c1cc(N=Nc2cc(S(=O)(=O)[O-])c3cccnc3c2O)ccc1/C=C/c1ccc(N=Nc2cc(S(=O)(=O)[O-])c3cccnc3c2O)cc1S(=O)(=O)[O-].[Mg+2].[Mg+2] | EC50 |  | CEM |  | XTT | 0.88 µM
CCCOC(=O)C(C)(C)NP(=O)(CO[C@@H](C)Cn1cnc2c(N)ncnc21)C(C#N)C#N | EC50 |  | PBMC |  | RT activity / fluorescence | >2.101 µM

The last 6 rows once more:

Cc1cc2ccc3c(c2oc1=S)[C@@H](OC(=O)C12CCC(C)(C(=O)O1)C2(C)C)[C@@H](OC(=O)C12CCC(C)(C(=O)O1)C2(C)C)C(C)(C)O3 ; measure: EC50 ; cell line: H9 ; strain: IIIB ; value: 0.0119 µM
O=Cc1coc2c(Cl)cc(Cl)cc2c1=O ; measure: EC50 ; cell line: HTLV-I-bearing MT-4 ; strain: IIIB ; read by: MTT ; value: >200 µg/mL
O=C1Nc2ccc(Cl)cc2[C@@](C#CC2CC2)(C(F)(F)F)[C@H]1OCc1cccnc1 ; measure: EC50 ; cell line: MT-2 ; strain: RF ; value: <0.02 µM
CC(=O)OC1C(OC(C)=O)[C@H](n2cnc3c2ncn2c(CCl)cc(=O)nc32)O[C@@H]1OC(C)=O ; measure: EC50 ; cell line: MT-4 ; strain: LAV-1 ; read by: RT activity ; value: >200 µM
O=S(=O)([O-])c1cc(N=Nc2cc(S(=O)(=O)[O-])c3cccnc3c2O)ccc1/C=C/c1ccc(N=Nc2cc(S(=O)(=O)[O-])c3cccnc3c2O)cc1S(=O)(=O)[O-].[Mg+2].[Mg+2] ; measure: EC50 ; cell line: CEM ; read by: XTT ; value: 0.88 µM
CCCOC(=O)C(C)(C)NP(=O)(CO[C@@H](C)Cn1cnc2c(N)ncnc21)C(C#N)C#N ; measure: EC50 ; cell line: PBMC ; read by: RT activity / fluorescence ; value: >2.101 µM